# Sequence variants of PSTVd loop 6 after infection

Data from the supplement of Wu et al. 2024, doi:10.1371/journal.ppat.1012142.

PSTVd intermediate strain, loop 6: wild type UGACCGCGAG, pool pattern UNNNCGNNNG; upper and lower strand joined, each 5' to 3', the first 5 letters being the upper strand, closing pairs included.

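Three N. benthamiana plants were inoculated with the whole mutant pool. Progeny were sequenced from the inoculated region (day 5), the margin of the inoculated leaf (day 10) and systemic leaves (day 12).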

Numbers give reads per thousand; 0 = not seen among the reads, higher = more abundant. Each value is the mean of three plants. "Pool" is the share in the plasmid pool used as inoculum, on the same scale. The inoculated region was read from the minus strand, the other sites from the plus strand. With 36,220-57,551 reads a sample, very low values are single reads. The authors trace changes outside the varied positions to PCR and sequencing errors or to mutation in the plant; presence does not show that a variant is infectious alone. Wild type was 20.7 per thousand in the pool and the most common sequence in every sample (inoculated region 195, 198, 203; leaf margin 629, 591, 734; systemic leaves 942, 870, 868).

| # | sequence | pool | inoculated region | leaf margin | systemic leaves |
|---|---|---|---|---|---|
| 1 | UCGACGGCCG | 0.209 | 0.0660 | 0 | 0 |
| 2 | UUCCCGAGAG | 0.340 | 0.112 | 0.0161 | 0 |
| 3 | UCUACGUCCG | 0.170 | 0.0903 | 0.00920 | 0 |
| 4 | UGGCCGCGGG | 0.275 | 0.695 | 0.127 | 0 |
| 5 | UGGGCGCUAG | 0.0523 | 0.108 | 0 | 0 |
| 6 | UGUUCGCAUG | 0.183 | 0.125 | 0 | 0.00684 |
| 7 | UCAUCGAGAG | 0.183 | 0.112 | 0.00773 | 0 |
| 8 | UUUCCGUUAG | 0.379 | 0.118 | 0.00773 | 0.00684 |
| 9 | UCGGCGUCUG | 0.392 | 0.0476 | 0.00920 | 0 |
| 10 | UCGACGCUAG | 0.144 | 0.118 | 0.00920 | 0 |
| 11 | UUUACGGUUG | 0.209 | 0.0890 | 0 | 0 |
| 12 | UUCCCGCGAG | 0.196 | 0.263 | 0.518 | 0.0341 |
| 13 | UUCACGCGCG | 0.261 | 0.114 | 0 | 0 |
| 14 | UAGACGGAUG | 0.209 | 0.113 | 0.0276 | 0 |
| 15 | UUAGCGCUCG | 0.288 | 0.0840 | 0 | 0 |
| 16 | UGGGCGACUG | 0.144 | 0.0710 | 0.00773 | 0 |
| 17 | UACCCGGGGG | 0.131 | 0.0713 | 0 | 0 |
| 18 | UUGUCGAUUG | 0.562 | 0.113 | 0 | 0 |
| 19 | UACACGGCUG | 0.196 | 0.594 | 0.0460 | 0 |
| 20 | UUAGCGCUGG | 0.144 | 0.0530 | 0.0169 | 0 |
| 21 | UAUACGUACG | 0.248 | 0.0829 | 0 | 0 |
| 22 | UUUACGAGGG | 0.170 | 0.0951 | 0 | 0 |
| 23 | UGACCGUAUG | 0.458 | 0.506 | 32.6 | 0.550 |
| 24 | UAGUCGGGCG | 0.0915 | 0.596 | 0.0268 | 0 |
| 25 | UAAUCGGCUG | 0.209 | 0.655 | 0.0691 | 0 |
| 26 | UCUACGAUGG | 0.340 | 0.0786 | 0.00920 | 0 |
| 27 | UGCACGCGAG | 0.261 | 0.202 | 0.150 | 0.0333 |
| 28 | UUGGCGAUUG | 0.445 | 0.0887 | 0 | 0 |
| 29 | UAAGCGGGUG | 0.157 | 0.0773 | 0 | 0 |
| 30 | UCGUCGAUGG | 0.445 | 0.130 | 0 | 0 |
| 31 | UAAGCGUCCG | 0.209 | 0.589 | 0.0696 | 0.00684 |
| 32 | UAGUCGGACG | 0.170 | 0.0893 | 0 | 0 |
| 33 | UCAGCGGCGG | 0.170 | 0.125 | 0.00920 | 0 |
| 34 | UUGCCGGGAG | 0.261 | 0.161 | 0 | 0 |
| 35 | UUGACGUCGG | 0.196 | 0.125 | 0.0169 | 0 |
| 36 | UUCGCCUUGG | 0.0131 | 0 | 0 | 0 |
| 37 | UACUCUCGAG | 0.0131 | 0 | 0.00773 | 0 |

3 of these entries, quoted again:

UACACGGCUG (pool 0.196): inoculated region 0.594; leaf margin 0.0460; systemic leaves 0.
UAAUCGGCUG (pool 0.209): inoculated region 0.655; leaf margin 0.0691; systemic leaves 0.
UUGCCGGGAG (pool 0.261): inoculated region 0.161; leaf margin 0; systemic leaves 0.